Assay results published in patent US8933019B2, “Antiviral cell-penetrating peptides” (priority 2008, dated 2015).

How the values were obtained:
[1] = Cytotoxicity, XTT method, MT-2 cells; assay type: cell-based; conditions: human, read-out: CC50 (μM) ± SD, cytotoxicity in MT-2 cells
Experimental: Cytotoxicity of peptides in MT-2 cells and PBMC was measured by the XTT [(sodium 3′-(1-(phenylamino)-carbonyl)-3,4-tetrazolium-bis(4-methoxy-6-nitro) bezenesulfonic acid hydrate)] method as previously described (Jiang et al., 2004). Briefly, for MT-2 cells, 100 μl of a peptide at graded concentrations was added to an equal volume of cells (1×10^5 cells/ml) in 96-well plates followed by incubation at 37° C. for 4 days, which ran parallel to the neutralization assay in MT-2 (except medium was added instead of virus). In the case of PBMC, 5×10^5 cells/ml were used and the cytotoxicity was measured after 7 days. After addition of XTT (PolySciences, Inc.), the soluble intracellular formazan was quantitated colorimetrically at 450 nm 4 hr later with a reference at 620 nm. The percent of cytotoxicity and the CC50 values were calculated as above (Table 2 and Table 3).

HIV-1 IIIB = conditions: read-out: IC50 (μM) ± SD, antiviral activity against HIV-1 IIIB; MT-2 cells, p24 production, fourth day post-infection

## CSCC[C@@H]1NC(=O)[C@H](Cc2c[nH]c3ccccc23)NC(=O)[C@@](C)(NC(=O)[C@H](CCC(=O)O)NC(=O)[C@@H](NC(=O)[C@H](CCCCN)NC(=O)[C@H](C)N)C(C)C)CCCC=CCCC[C@@](C)(C(=O)N[C@H](C(=O)N[C@@H](CC(C)C)C(=O)N[C@@H](CC(C)C)C(=O)N[C@H](C(=O)N[C@@H](C)C(N)=O)C(C)C)[C@@H](C)O)NC(=O)[C@H]([C@@H](C)O)NC1=O [NYAD-210, AKVEXWMTXTLLVA]
[1]
  CC50 at 4 days: > 112 µM
HIV-1 IIIB
  IC50: 5.15 ± 0.76 µM
